PubChem BioAssay AID624099 – ICCB-Longwood | 2012
The deposit covers about 21,000 reagents; this is an unselected part. 497 of all reagents (2.4%) count as active. 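Higher z means weaker E2 silencing; only reporter increases were scored, and knock-downs that hurt cell survival may mask genuine repressor factors.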 Entries without a mark were called inactive. Reagents against one gene are numbered here.

- Aim: 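Host factors E2 relies on to silence an HPV18 LCR reporter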 (primary screen)
- Cell system: human C33A cervical carcinoma cells (HPV-negative) stably expressing BPV1 E2 and an HPV18 LCR luciferase reporter
- Reagents: siRNA pool against human genes, 40 nM
- Timing: 72 h
- Measurement: 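HPV18 LCR reporter light per well, converted to plate-wise z-scores that exclude control wells, and averaged over triplicate plates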
- Direction: mean z-score and z-score: higher = stronger reporter signal, weaker E2 silencing
- Active means: 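Hit if mean z-score reaches 2 and two or more of three replicate z-scores also reach 2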

target gene	reagent	mean z-score	z-score, replicate A	z-score, replicate B	z-score, replicate C
L2HGDH	1	0.99	0.85	1.25	0.86
ZNF607	1	0.88	1.03	0.61	1
LOC388235 (retired record)	1	0.34	0.34	0.26	0.4
SSNA1	1	-0.36	-0.38	-0.27	-0.42
TRIM51FP	1	-1.41	-0.96	-1.71	-1.56
FAM9A	1	-0.77	-0.59	-1	-0.71
LOC389904 (retired record)	1	0.06	0.29	-0.09	-0.01
ACTL9	1	-0.44	-0.59	-0.4	-0.34
VCAM1	1	0.79	0.4	0.92	1.06
SAP130	1	-1.21	-1.44	-1.52	-0.66
PTPRC	1	0.46	0.38	0.23	0.78
FCGR2C	1	-0.68	-0.48	-0.78	-0.78
FGF11	1	0.07	0.21	-0.04	0.03
CYTH1	1	0.44	0.39	0.56	0.37
RNF207	1	1.27	1	1.35	1.46
RNF207	2	3.95 (active)	4.67	3.88	3.32
FKRP	1	-0.6	-0.69	-0.4	-0.69
WDR45B	1	0.98	0.94	1.11	0.88
CNIH3	1	-1.32	-1.56	-1.11	-1.29
RAB38	1	1.1	0.99	1.18	1.13
GFI1B	1	0.08	0.31	0.19	-0.25
SYNJ2BP	1	0.72	0.49	0.92	0.75
EXOC3L1	1	-0.62	-0.78	-0.41	-0.67
FAM133DP	1	0.89	1.23	0.48	0.95
CGB8	1	-0.16	-0.03	-0.34	-0.12
SPATA22	1	0.86	0.67	0.93	0.97
OR4C3	1	-0.65	-0.67	-0.46	-0.81
RPS2P32	1	1.69	1.12	1.84	2.11
PRMT6	1	-0.5	-0.95	-0.73	0.17
H1-9P	1	0.49	0.31	0.69	0.47
SENP2	1	-0.44	-0.86	-0.5	0.04
AOAH	1	0.05	0.17	0	-0.03
LERFS	1	-0.05	-0.36	0.16	0.05
WDTC1	1	-1.46	-1.54	-1.4	-1.42
ZDHHC20	1	-0.99	-0.98	-1.23	-0.78
LOC400093 (retired record)	1	0.17	0.17	0.16	0.2
OR5H1	1	0.28	0.04	0.57	0.23
ARPC2	1	0.2	0.19	0.18	0.23
GATA3-AS1	1	-0.23	-0.18	-0.33	-0.18
SNRPD1	1	-1.32	-1.41	-1.56	-0.99
FOXN3	1	-0.93	-0.96	-0.74	-1.09
FOXN3	2	-0.51	-0.31	-0.63	-0.58
ADAM7	1	1.98	1.87	2	2.06
EXOC8	1	-0.11	-0.01	-0.13	-0.19
WDR73	1	0.77	0.45	1.07	0.78
CLEC19A	1	0.3	0.58	0.03	0.29
VMAC	1	-1.85	-1.43	-2.32	-1.8
MMADHC	1	1.35	1.34	1.39	1.32
ZNF79	1	0.15	0.31	0.02	0.13
LPIN2	1	-0.48	-0.53	-0.59	-0.31
CSAG2	1	0.36	0.37	0.61	0.09
ACLY	1	1.95	2.07	1.87	1.9
TRIM62	1	-0.98	-1.03	-0.95	-0.97
CSPG4P5	1	0.65	0.58	0.81	0.57
MKNK1	1	0.07	0.12	0.47	-0.39
ASTN2	1	0.48	0.36	0.69	0.4
GBP3	1	-1.51	-1.47	-1.72	-1.33
LINC01002	1	0.69	0.27	0.98	0.81
MORN4	1	-0.19	0.03	-0.32	-0.26
CAMLG	1	0.43	0.38	0.52	0.4
CUX1	1	-1.42	-1.08	-1.83	-1.35
KLHL8	1	0.42	0.87	0.29	0.1
ARF3	1	0.06	0.3	-0.25	0.14
LHX5	1	1.06	0.73	1.12	1.31
NRM	1	0.31	0.5	0.34	0.07
ANKUB1	1	0.99	0.68	1.4	0.87
ANKUB1	2	-1.81	-1.29	-1.99	-2.16
CCDC15	1	-0.33	-0.44	-0.45	-0.09
SIRT1	1	1.12	1.08	1.12	1.16
PPP3CB	1	2.35 (active)	2.35	2.6	2.09
PHOSPHO1	1	0.01	-0.37	-0.5	0.9
MEP1B	1	0.45	0.68	0.33	0.36
OR10H2	1	-0.51	-0.33	-0.91	-0.29

Reagents listed so far marked active:
target gene	reagent	mean z-score	z-score, replicate A	z-score, replicate B	z-score, replicate C
RNF207	2	3.95 (active)	4.67	3.88	3.32
PPP3CB	1	2.35 (active)	2.35	2.6	2.09
